Anti-infective test results gathered from many reports (values: NIAID ChemDB through PubChem).

All rows: whole-cell or culture tests; agent: Candida albicans; endpoint: MIC

An empty or dashed field is not shown.

SMILES,strain or isolate,value
Oc1ccc(C(=S)N2C=NC(c3ccccc3)C2c2ccccc2)c(O)c1,10 isolates,25 µg/mL
CCCCCCCCCCCC[n+]1cccc(/C=C/C(=O)c2ccccc2OC)c1,-,<7.25 µg/mL
C=C1CCN(C(C)C(O)(Cn2cncn2)c2ccc(F)cc2F)CC1,KC-03,<0.025 µg/mL
CCOC(=O)c1ccc2nc(-c3ccc(C(N)=NCCc4ccccc4)cc3)[nH]c2c1,ATCC 10231,50 µg/mL
CCOC(=O)c1csc(C2CCCN2)n1,7 isolates,404 µM
CC(=O)Oc1cc(Cl)ccc1C(=O)Nc1ccc(Br)cc1,ATCC 44859,7.81 µg/mL
CCOC(=O)/C(N=Nc1ccc(-c2n[nH]c(=O)n2-c2ccccc2)cc1)=C(\C)O,ATCC 2091,62.5 µg/mL
CCCCCCCCCCC[C@H]1NC(=O)[C@H](CC(C)(C)C)NC(=O)[C@H](CCCCN)NC(=O)CNC(=O)[C@@H]1C,-,128 µg/mL
CC(N)c1nc(C(N)=O)cs1,7 isolates,>1000 µM
O=c1cc(-c2ccc(O)cc2)oc2cc(O)cc(O)c12,-,3.12 µg/mL
C[C@H]1[C@H](O)[C@@H](C)/C=C/C=C/C=C/C=C/C=C/C=C/C=C/[C@H](O[C@@H]2O[C@H](C)[C@@H](O)[C@H](N)[C@@H]2O)C[C@@H]2O[C@](O)(C[C@@H](O)C[C@@H](O)CC[C@H](O)[C@@H](O)C[C@@H](O)CC(=O)O[C@H]1C)C[C@H](O)[C@H]2C(=O)O,TIMM1768,0.39 µg/mL
COc1ccc(-c2cc(C(=O)N/N=C/c3ccccc3)c3ccccc3n2)cc1,ATCC 10231,100–200 µg/mL
CCCCCCCCCC[C@@H]1CC(=O)NCC(=O)N[C@@H](CCCCN)C(=O)N[C@@H](CC(C)(C)C)C(=O)N1,-,4 µg/mL
COc1cccc(C(=O)/C=C/c2cccnc2)c1,-,37.8 µg/mL
CCn1c2c(c3ccccc31)C(=O)c1ncc(C)cc1C2=O,-,>200 µg/mL
CCn1c(-c2ccc(N=Nc3c(C)[nH]n(CCO)c3=O)cc2)n[nH]c1=S,ATCC 2091,125 µg/mL
COc1cc(O)c2c(c1)C(=O)c1c(cc3c(c1O)-c1c(cc(C)c(C(=O)NC(C)C(=O)O)c1O)[C@H](OC1OC(C)C(N(CC(=O)O)CC(=O)O)C(OC4OCC(O)C(O)C4O)C1O)[C@H]3O)C2=O,A9540,50 µg/mL
CCCCCCCCCCCC[n+]1ccc(/C=C/C(=O)c2cccc(OC)c2)cc1,-,<7.65 µg/mL
Cc1ccc(-c2c(CN)c(=O)n3[nH]c(-c4c(O)c(O)c(O)c(O)c4CO)nc3c2CN)o1,-,12.5 µg/mL
CCN(C)NC(=O)Cc1nc2cc(C(=O)OC)ccc2n1Cc1ccc(Cl)cc1,ATCC 10231,>50 µg/mL
CC(NC(=O)OC(C)(C)C)c1nc(C(N)=O)cs1,7 isolates,220–440 µM
CCCCCCCCCC[n+]1cccc(/C=C/C(=O)c2cccc(OC)c2)c1,-,<7.5 µg/mL
O=C1c2cccc(O)c2C(=O)c2c(O)cc(CO)cc21,-,50 µg/mL
CCn1c(-c2ccc(N=Nc3c(C)[nH]n(-c4ccccc4)c3=O)cc2)n[nH]c1=S,ATCC 2091,125 µg/mL
Clc1ccc(CN(Cc2ccc(-c3ccccc3)cc2)n2ccnc2)cc1,-,33 µM
CC(=O)Oc1c(Cl)cccc1C(=O)Nc1ccc(Cl)c(Cl)c1,ATCC 44859,3.91 µg/mL
Fc1ccc(CN(Cc2ccc(-c3ccccc3)cc2)n2ccnc2)c(F)c1,-,200 µM
CCCSc1cc(=S)ss1,Clinical isolate 00-622,4 µg/mL
CC(=CCC/C=C(\C)CCC=C(C)CCCN(C)C)CC/C=C(\C)CCC1OC1(C)C,ATCC 10231,30 µM
N=C(N)SCCN(CCSC(=N)N)CCSC(=N)N,ATCC 18804,0.49 µg/mL
CCOC(=O)/C(N=Nc1ccc(-c2n[nH]c(=S)o2)cc1)=C(\C)O,ATCC 2091,62.5 µg/mL
CCCCCCCC[n+]1ccc(/C=C/C(=O)c2ccccc2OC)cc1,-,<8.12 µg/mL
CCN(NC(=O)Cc1nc2cc(C(=O)OC)ccc2n1Cc1ccc(Cl)cc1)C(C)C,ATCC 10231,>50 µg/mL
O=C(COc1ccc(Br)cc1)N=Nc1c(O)[nH]c2cc(Cl)ccc12,-,>1.56 µg/mL
CCCn1c(-c2ccc(C(N)=NC(C)C)cc2)nc2cc(C(=O)OCC)ccc21,ATCC 10231,50 µg/mL
Cc1[nH][nH]c(=O)c1N=Nc1ccc(C(=O)N/N=C/c2ccc(F)cc2)cc1,ATCC 2091,125 µg/mL
COc1ccccc1C(=O)/C=C/c1ccncc1,-,15.5 µg/mL
COCCNC(=O)[C@H]1[C@@H]2C[C@@H](O[C@@H]3O[C@H](C)[C@@H](O)[C@H](N)[C@@H]3O)/C=C/C=C/C=C/C=C/C=C/C=C/C=C/[C@H](C)[C@@H](O)[C@H](C)[C@H](C)OC(=O)C[C@H](O)C[C@H](O)[C@@H](O)CC[C@H](O)C[C@H](O)C[C@](O)(C[C@@H]1O)O2,3 strains,1.6 µg/mL
CCOC(=O)c1ccc2c(c1)nc(-c1ccc(C(=O)NN(CC)CC)cc1)n2Cc1ccc(Cl)cc1Cl,ATCC 10231,25 µg/mL
CC(=O)Oc1cc(Cl)ccc1C(=O)Nc1ccc(Cl)cc1,ATCC 44859,125 µg/mL
O=C(N=Nc1c(O)[nH]c2cc(Cl)ccc12)Nc1ccc(Br)cc1,-,1.56 µg/mL
CNC(=O)c1csc(C(NC(=O)OC(C)(C)C)C(C)C)n1,7 isolates,>409 µM
CCCCCCCCC[C@@H]1CC(=O)NCC(=O)N[C@@H](CCCCN)C(=O)N[C@@H](CC(C)(C)C)C(=O)N1,-,16 µg/mL
COc1cc(O)c2c(c1)C(=O)c1c(cc3c(c1O)-c1c(cc(C)c(C(=O)NC(C)C(=O)O)c1O)[C@H](OC1OC(C)C(N(C)C(=O)CCC(=O)O)C(OC4OCC(O)C(O)C4O)C1O)[C@H]3O)C2=O,A9540,>100 µg/mL
CN=C(N)SCCN(CCSC(N)=NC)CCN(CCSC(N)=NC)CCSC(N)=NC,ATCC 18804,>1000 µg/mL
CCOC(=O)c1ccc2c(c1)nc(-c1ccc(C(N)=NC(C)C)cc1)n2Cc1ccccc1,ATCC 10231,50 µg/mL
OC(Cn1cncn1)(Cn1cncn1)c1ccc(F)cc1F,E81022,0.39 µg/mL
Cc1c(O)cccc1C(=O)N[C@@H](CSc1ccccc1)[C@H](O)CN1C[C@H]2CCCC[C@H]2C[C@H]1C(=O)NC(C)(C)C,I68A,64 µg/mL
CCCCC1Sc2ccc(C(Cn3ccnc3)OCc3ccc(Cl)cc3)cc2N(C)C1=O,CA6,<1.8 µg/mL
CC(=O)Oc1c(Cl)cccc1C(=O)Nc1cccc(Cl)c1,ATCC 44859,31.25 µg/mL
O=C(N=Nc1c(O)[nH]c2cccc(Cl)c12)Nc1ccc([N+](=O)[O-])cc1,-,>1.56 µg/mL
CN1C(=O)COc2ccc(C(Cn3ccnc3)OCc3ccc(Cl)cc3)cc21,CA6,7.8–15.6 µg/mL
COc1cc(O)c2c(c1)C(=O)c1c(cc3c(c1O)-c1c(cc(C)c(C(=O)NC(C)C(=O)O)c1O)[C@H](OC1OC(C)C(N(C)C/C=C/C(=O)O)C(OC4OCC(O)C(O)C4O)C1O)[C@H]3O)C2=O,A9540,6.3 µg/mL
CCCCCCCCC[C@@H]1CC(=O)NCC(=O)N[C@@H](CCCCN)C(=O)N[C@@H](CC(C)C)C(=O)N1,-,4 µg/mL
C[C@H]1[C@H](O)[C@@H](C)/C=C/C=C/C=C/C=C/C=C/C=C/C=C/[C@H](O[C@@H]2O[C@H](C)[C@@H](O)[C@H](N)[C@@H]2O)C[C@@H]2O[C@](O)(C[C@@H](O)C[C@@H](O)CC[C@H](O)[C@@H](O)C[C@@H](O)CC(=O)O[C@H]1C)C[C@H](O)[C@H]2C(=O)O,ATCC 90028,2.9 µg/mL
CCCCCCCC[n+]1cccc(/C=C/C(=O)c2cccc(OC)c2)c1,-,<7.42 µg/mL
CCOC(=O)c1csc(C(NC(=O)OC(C)(C)C)C(C)C)n1,7 isolates,389 µM
COc1cc(O)c2c(c1)C(=O)c1cc(C)cc(O)c1C2=O,-,50 µg/mL
CC1C(=O)C(C)C(c2ccc(Cl)cc2)N(OCCc2nc3ncccc3[nH]2)C1c1ccc(Cl)cc1,NCIM-C27,25 µg/mL
O=C(COc1ccccc1)N=Nc1c(O)[nH]c2cccc(Cl)c12,-,>1.56 µg/mL
O=C(N/N=C/c1ccccc1)c1cc(-c2ccc(Br)cc2)nc2ccc(Cl)cc12,ATCC 10231,100–200 µg/mL
O=C(CN1CCOCC1)Nc1nc(-c2ccccc2)cc(-c2ccc(F)cc2)n1,CaCYP51,25 µg/mL
CCCCOC1Sc2ccc(C(Cn3ccnc3)OCc3ccc(Cl)cc3)cc2N(C)C1=O,CA6,1.8–3.9 µg/mL
COc1ccc(-c2nc3c(CN)c(-c4ccc(C)o4)c(CN)c(=O)n3[nH]2)cc1,-,0.19 µg/mL
CCOC(=O)/C(N=Nc1ccc(-c2n[nH]c(=S)n2-c2ccccc2)cc1)=C(\C)O,ATCC 2091,62.5 µg/mL
Oc1ccc(C(=S)N2C=NC(Cl)C2Cl)c(O)c1,ATCC 10231,50 µg/mL
CCCCCCCCCCCC[n+]1ccc(/C=C/C(=O)c2ccccc2OC)cc1,-,<7.65 µg/mL
CCOC(=O)/C(N=Nc1ccc(-c2n[nH]c(=S)n2CC)cc1)=C(\C)O,ATCC 2091,125 µg/mL
Cc1ccc(-c2cc(C(=O)N/N=C/c3ccc(Cl)cc3)c3ccccc3n2)cc1,ATCC 10231,50–100 µg/mL
CC1C(=O)CC(c2ccccc2)N(OCCc2nc3ncccc3[nH]2)C1c1ccccc1,NCIM-C27,100 µg/mL
O=C(N/N=C/c1ccccc1)c1cc(-c2ccc(Cl)cc2)nc2ccccc12,ATCC 10231,50–100 µg/mL
COC(=O)/C=C/C(=O)CC[C@H](N)C(N)=O.Cl,ATCC 10231,4 µg/mL
COc1ccccc1C(=O)/C=C/c1cccnc1,-,15 µg/mL
Cc1ccc(-c2cc(C(=O)N/N=C/c3ccccc3)c3cc(Cl)ccc3n2)cc1,ATCC 10231,50–100 µg/mL
CCOC(=O)[C@H](Cc1nccs1)NC(=O)CNC(=O)CN,7 isolates,>1000 µM
COc1ccc(C2CC(=O)CC(c3ccc(OC)cc3)N2OCCc2nc3ncccc3[nH]2)cc1,51 (NCIM-C27),100 µg/mL
O=C(N/N=C/c1ccccc1)c1cc(-c2ccccc2)nc2ccc(Cl)cc12,ATCC 10231,50–100 µg/mL
CC(=O)Oc1cc(Cl)ccc1C(=O)Nc1ccc(C(F)(F)F)cc1,ATCC 44859,7.81 µg/mL
c1ccc(CN(Cc2ccc(-c3ccccc3)cc2)n2ccnc2)cc1,-,200 µM
C[C@H](N)C(=O)N[C@H](C(=O)O)n1cc(F)c(=O)[nH]c1=O,3153A,12.5 µg/mL

Repeating the final 10 entries:

SMILES | strain or isolate | value
O=C(N/N=C/c1ccccc1)c1cc(-c2ccc(Cl)cc2)nc2ccccc12 | ATCC 10231 | 50–100 µg/mL
COC(=O)/C=C/C(=O)CC[C@H](N)C(N)=O.Cl | ATCC 10231 | 4 µg/mL
COc1ccccc1C(=O)/C=C/c1cccnc1 | - | 15 µg/mL
Cc1ccc(-c2cc(C(=O)N/N=C/c3ccccc3)c3cc(Cl)ccc3n2)cc1 | ATCC 10231 | 50–100 µg/mL
CCOC(=O)[C@H](Cc1nccs1)NC(=O)CNC(=O)CN | 7 isolates | >1000 µM
COc1ccc(C2CC(=O)CC(c3ccc(OC)cc3)N2OCCc2nc3ncccc3[nH]2)cc1 | 51 (NCIM-C27) | 100 µg/mL
O=C(N/N=C/c1ccccc1)c1cc(-c2ccccc2)nc2ccc(Cl)cc12 | ATCC 10231 | 50–100 µg/mL
CC(=O)Oc1cc(Cl)ccc1C(=O)Nc1ccc(C(F)(F)F)cc1 | ATCC 44859 | 7.81 µg/mL
c1ccc(CN(Cc2ccc(-c3ccccc3)cc2)n2ccnc2)cc1 | - | 200 µM
C[C@H](N)C(=O)N[C@H](C(=O)O)n1cc(F)c(=O)[nH]c1=O | 3153A | 12.5 µg/mL

Two numbers with a dash give a range or band. Rows are shuffled and stem from different studies.